Results of unrelated studies side by side (data: NIAID ChemDB).

Common to all: tests in culture; agent: Epstein-Barr virus; read by: ELISA; measure: EC50

ECn is the concentration giving n% inhibition of infection, replication or growth.

smiles,cell line,result
Nc1ncnc2c1ncn2/C=C1\[C@H](CO)C1(F)F,DAUDI,77 µM
Nc1nc2c(ncn2[C@H]2C[C@@H](O)[C@H](O)[C@@H]2O)c(=O)[nH]1,DAUDI,>50 µg/mL
Nc1cn(C=C2C[C@H]2CO)c(=O)[nH]c1=O,DAUDI,<0.41 µM
Nc1ncnc2c1ncn2[C@H]1C[C@]12C[C@H]2CO,DAUDI,22 µM
COC(=O)C(C)NP(=O)(OC[C@@H]1C/C1=C\n1cc(C)c(=O)[nH]c1=O)Oc1ccccc1,DAUDI,>100 µM
Nc1ncnc2c1ncn2[C@H]1C[C@@]12C[C@H]2CO,DAUDI,153 µM
Cn1cc(C(=O)NCc2ccc(Cl)cc2)c(=O)c2cc(CN3CCOCC3)ccc21,DAUDI,0.9 µM
Nc1ncnc2c1ncn2[C@H]1C[C@]12C[C@@H]2CO,DAUDI,4.8 µM
Cc1cn(/C=C2/CC2(CO)CO)c(=O)[nH]c1=O,P3HR-1,4.4 µM
Nc1nc2c(ncn2[C@H]2C[C@]23C[C@H]3CO)c(=O)[nH]1,DAUDI,>199 µM
Nc1nc2c(ncn2COCCO)c(=O)[nH]1,DAUDI,9.3 µM
Nc1nc(Cl)c2ncn(/C=C3/C[C@H]3CO)c2n1,H-1,0.7 µM
Nc1nc(NCC2CC2)c2ncn(/C=C3/C[C@@H]3CO)c2n1,P3HR-1,0.6 µM
Nc1ncc2ncn(/C=C3\CC3CO)c2n1,,>100 µM
Nc1ncnc2c1ncn2[C@H]1C[C@@]12C[C@@H]2CO,DAUDI,>216 µM
Nc1ncc2ncn(/C=C3/CC3CO)c2n1,,>100 µM
Nc1nc(NCC2CC2)c2ncn(/C=C3/C[C@@H]3CO)c2n1,DAUDI,0.6 µM
COC(=O)C(C)NP(=O)(OC[C@@H]1C/C1=C/n1cc(C)c(=O)[nH]c1=O)Oc1ccccc1,DAUDI,>100 µM
O[C@@H]1[C@H](O)[C@H](O)CO[C@H]1n1c(Br)nc2cc(Cl)c(Cl)cc21,DAUDI,>72 µM

2 of the rows above, restated:

| smiles | cell line | result |
|---|---|---|
| Nc1nc2c(ncn2COCCO)c(=O)[nH]1 | DAUDI | 9.3 µM |
| Nc1nc(Cl)c2ncn(/C=C3/C[C@H]3CO)c2n1 | H-1 | 0.7 µM |

Blank or dashed fields: not listed here. Lines come from different laboratories, so protocols vary.